Data taken from paper PMC12388504, “Antiparasitic Effect of Polyphenols and Terpenes from Natural Products Against Trypanosoma cruzi and Leishmania mexicana” (Metabolites, 2025).

How the values were obtained:
[1] = tested on: T. cruzi epimastigotes A1 strain; assay: Anti-Trypanosoma cruzi activity, epimastigotes A1 strain (MTT); assay type: cell-based; conditions: Selectivity index (CC50/IC50), J774.2 vs A1
[2] = tested on: T. cruzi epimastigotes NINOA strain; assay: Anti-Trypanosoma cruzi activity, epimastigotes NINOA strain (MTT); assay type: cell-based; conditions: Selectivity index (CC50/IC50), J774.2 vs NINOA

Structure (SMILES) | T. cruzi SI A1 [1] | T. cruzi SI NINOA [2]
OCc1ccccc1 [Compound 1, benzyl alcohol] | 0.4 | 0.1
Cc1ccc(CO)cc1 [Compound 2, 4-methylbenzyl alcohol] | 4.0 | 3.9
Cc1ccccc1CO [Compound 3, 2-methylbenzyl alcohol] | 0.3 | 0.3
OCc1ccc2ccccc2c1 [Compound 5, 2-naphtalenemethanol] | 1.0 | 1.6
OCCc1ccccc1 [Compound 7, phenethyl alcohol] | 0.4 | 1.9
COc1ccc(CCO)cc1 [Compound 8, 4-methoxyphenethyl alcohol] | 1.0 | 1.0
OCC=Cc1ccccc1 [Compound 9, cinnamyl alcohol] | 2.1 | 0.2
CC(C)=CCO [Compound 10, prenol] | 1.0 | 7.3
CC(C)=CCCC(C)CCO (stereo not drawn) [Compound 11, β-citronellol] | 9.3 | 3.7
CC(C)=CCC/C(C)=C/CO [Compound 12, geraniol] | 1.6 | 4.9
CC(C)[C@H]1CC[C@H](C)C[C@@H]1O [Compound 14, l-(-)-menthol] | 1.0 | 8.2
C=C(C)[C@H]1CC=C(CO)CC1 [Compound 15] | 1.0 | 1.0
OC1CCCC1 [Compound 18, cyclopentyl alcohol] | 2.3 | 0.1
